Data as given in patent US20240181044A1.

Molecular target: RBD (SARS-COV-2) (UniProt P0DTC2)
Test: SPR

Substance	Kd [nM]
CB6	39
CC12.1	20
CC12.3	9.6
CV30	10
EY6A	7
